# Results published in patent US8206898B2, “RNA exit channel: target and method for inhibition of bacterial RNA polymerase” (priority 2003, dated 2012).
# Test system: RNAP holoenzyme (β′/β/α^I/α^II/ω/σ^70)
# Test: FRET probe-probe distances in RNAP holoenzyme with and without Lpm
# Design: species or system Escherichia coli
substance,measurement,setting,value
lipiarmycin [Lpm],decrease in distance on binding of Lpm,between β′ residue 1377 and σ residues 527 and 537,> 10 Å
same,R (Å) +Lpm,"α^II235-F/σ-TMR, σ R1.1 residue 59",111 Å
same,R (Å) +Lpm,"α^II235-F/σ-TMR, σ R2 residue 366",125 Å
same,R (Å) +Lpm,"α^II235-F/σ-TMR, σ R3.1 residue 459",94 Å
same,R (Å) +Lpm,"α^II235-F/σ-TMR, σ R3.2 residue 517",73 Å
same,R (Å) +Lpm,"α^II235-F/σ-TMR, σ R3.2 residue 527",74 Å
same,R (Å) +Lpm,"α^II235-F/σ-TMR, σ R3.2 residue 537",75 Å
same,R (Å) +Lpm,"α^II235-F/σ-TMR, σ R4 residue 560",95 Å
same,R (Å) +Lpm,"α^II235-F/σ-TMR, σ R4 residue 569",95 Å
same,R (Å) +Lpm,"α^II235-F/σ-TMR, σ R4 residue 578",104 Å
same,R (Å) +Lpm,"α^II235-F/σ-TMR, σ R4 residue 583",99 Å
same,R (Å) +Lpm,"α^II235-F/σ-TMR, σ R4 residue 596",75 Å
same,R (Å) +Lpm,"β′1377-F/σ-TMR, σ R1.1 residue 59",74 Å
same,R (Å) +Lpm,"β′1377-F/σ-TMR, σ R2 residue 366",74 Å
same,R (Å) +Lpm,"β′1377-F/σ-TMR, σ R3.1 residue 459",66 Å
same,R (Å) +Lpm,"β′1377-F/σ-TMR, σ R3.2 residue 517",60 Å
same,R (Å) +Lpm,"β′1377-F/σ-TMR, σ R3.2 residue 527",62 Å
same,R (Å) +Lpm,"β′1377-F/σ-TMR, σ R3.2 residue 537",58 Å
same,R (Å) +Lpm,"β′1377-F/σ-TMR, σ R4 residue 560",72 Å
same,R (Å) +Lpm,"β′1377-F/σ-TMR, σ R4 residue 569",66 Å
same,R (Å) +Lpm,"β′1377-F/σ-TMR, σ R4 residue 578",72 Å
same,R (Å) +Lpm,"β′1377-F/σ-TMR, σ R4 residue 583",80 Å
same,R (Å) +Lpm,"β′1377-F/σ-TMR, σ R4 residue 596",69 Å
